Measured values from several laboratories, pooled; numbers as filed in NIAID ChemDB.

Common to all: growth or infection tests; organism: Candida albicans; measure: MIC

Neighbouring rows are from separate reports.

compound | strain or isolate | read by | setting | value
N#Cc1ccc2c(c1)ncn2-c1ccc(-c2nc3ccccc3[nH]2)cc1 | ATCC 10231 | broth dilution |  | 6.25 µg/mL
CC1(C)S[C@@H]2[C@H](NC(=O)[C@H](N)c3ccccc3)C(=O)N2[C@H]1C(=O)O | Clinical Isolate 092251 | broth dilution |  | 4.7 µg/mL
C[C@@H](n1ccn(-c2ccc(OC(F)(F)C(F)F)cc2)c1=O)C(O)(Cn1cncn1)c1ccccc1F | TA |  |  | <0.016 µg/mL
Clc1cc2ncn(-c3ccc(-c4nc5ccccc5[nH]4)cc3)c2cc1Cl | ATCC 10231 | broth dilution |  | 12.5 µg/mL
CN[C@@H]1[C@H](O[C@@H]2OC[C@@H](O)[C@H](O)[C@H]2O)[C@@H](O)[C@H](O[C@H]2c3cc(C)c(C(=O)N[C@H](C)C(=O)O)c(O)c3-c3c(cc4c(c3O)C(=O)c3cc(OC)c(C(=O)O)c(O)c3C4=O)[C@@H]2O)O[C@@H]1C | A9540 |  |  | >100 µg/mL
Cc1nn2c(-c3ccncc3)nnc2sc1=NNc1ccc(Br)cc1 | ATCC 10231 | broth dilution |  | >100 µg/mL
CCc1ccc(-c2nc3cc(NC(=O)Cc4ccccc4)ccc3o2)cc1 | ATCC 10145 |  |  | 50 µg/mL
CCOC(=O)/C(N=Nc1ccc(-c2n[nH]c(=S)n2-c2ccccc2)cc1)=C(\C)O | ATCC 2091 |  |  | 62.5 µg/mL
O=C(O)c1cc([N+](=O)[O-])c(N=Nc2ccc(O)c3ccccc23)c([N+](=O)[O-])c1 | UBA 7 |  |  | 13.02 µg/mL
O=[N+]([O-])c1ccc(-c2nc3ncccn3c2O)cc1 | A |  |  | >125 µg/mL
S=C(NNC1=Nc2ccc3ccccc3c2SC1)Nc1ccccc1 | CBS 562 |  |  | 50 µg/mL
CC(C)(C)c1ccc(-c2nc3cc(NC(=O)CN4CCNCC4)ccc3o2)cc1 | ATCC 10145 |  |  | 25 µg/mL
Cc1c(Cl)[n+](=O)c2cc(Cl)ccc2n1[O-] | Clinical isolate 17 |  |  | 31.25 µg/mL
CC(=O)ONC1=Nc2ccc(Cl)cc2SCC1 | CBS 562 |  |  | 50 µg/mL
C[C@H]1[C@H](O)[C@@H](C)/C=C/C=C/C=C/C=C/C=C/C=C/C=C/[C@H](O[C@@H]2O[C@H](C)[C@@H](O)[C@H](N)[C@@H]2O)C[C@@H]2O[C@](O)(C[C@@H](O)C[C@@H](O)CC[C@H](O)[C@@H](O)C[C@@H](O)CC(=O)O[C@H]1C)C[C@H](O)[C@H]2C(=O)O | IFO 1594 |  |  | 1.56 µg/mL
Cc1ccc(C=NNC(=O)c2cnc3c(ccc4[nH]c(Cl)cc(C)c43)c2=O)cc1 |  | broth dilution |  | 250 µg/mL
Nc1c(S(=O)(=O)O)cc(S(=O)(=O)O)c2cccc(O)c12 |  | agar diffusion |  | 300 µg/mL
CCCCOc1ccc(CC(=O)Nc2ccc3oc(-c4ccccc4)nc3c2)cc1 | ATCC 10145 |  |  | 25 µg/mL
N/C(COc1ccccc1Cl)=N/NC(=O)c1ccncc1 | ATCC E10231 |  |  | >100 µg/mL
CCc1ccc(-c2nc3cc(NC(=O)Cc4ccc(Br)cc4)ccc3o2)cc1 | ATCC 10145 |  |  | 50 µg/mL
Nc1cc(S(=O)(=O)O)cc2cc(S(=O)(=O)O)cc(O)c12 |  | agar diffusion |  | 50 µg/mL
CCCCCCCCCCCC[n+]1cccc2ccccc21 | ATCC 44859 | broth dilution | 48 h | 0.01562 µg/mL
O=C(N/N=C(\COc1ccc(Cl)cc1)N=Cc1ccncc1)c1ccncc1 | ATCC E10231 |  |  | >100 µg/mL
Cc1ccccc1N/N=c1/sc2nnc(-c3ccncc3)n2nc1C | ATCC 10231 | broth dilution |  | >100 µg/mL
O=C(N/N=C(\COc1ccccc1)N=Cc1ccccn1)c1ccncc1 | ATCC E10231 |  |  | 100 µg/mL
O=C(CN1CCNCC1)Nc1ccc2oc(-c3ccc(F)cc3)nc2c1 | ATCC 10145 |  |  | 25 µg/mL
C[C@@H](n1ccn(-c2ccc(OCC(F)(F)C(F)F)cc2)c1=O)C(O)(Cn1cncn1)c1ccc(F)cc1F | TA |  |  | <0.016 µg/mL
Oc1c(-c2ccccc2)nc2ccccn12 | A |  |  | >125 µg/mL
Nc1ccc2ccccc2c1S(=O)(=O)O |  | agar diffusion |  | 200 µg/mL
C=C[C@]1(C)C2=C3c4c([nH]c5cccc(c45)C(C)(C)[C@H]3C[C@H]1Cl)C(C)(C)C(C#N)=C2 |  | broth dilution |  | >100 µM
COc1cc(C2C(Cl)C(=O)N2NC(=O)c2cnc3c(ccc4[nH]c(Cl)cc(C)c43)c2=O)ccc1O |  | broth dilution |  | 1000 µg/mL
OC(Cn1cncn1)(Cn1cncn1)c1ccc(F)cc1F | Berkout KCCM 50235 |  |  | 1.6 µg/mL
C=CCn1c(-c2ccc(N=N/C(C(=O)OCC)=C(/C)O)cc2)n[nH]c1=S | ATCC 2091 |  |  | 62.5 µg/mL
CC(=O)Nc1ccc(OC/C(N)=N\NC(=O)c2ccncc2)cc1 | ATCC E10231 |  |  | >100 µg/mL
COc1ccc(N/N=c2/sc3nnc(-c4ccncc4)n3nc2C)cc1 | ATCC 10231 | broth dilution |  | 25 µg/mL
O=C(ONC1=Nc2ccccc2SCC1)c1ccccc1 | CBS 562 |  |  | >100 µg/mL
Nc1cccc(S(=O)(=O)O)c1 |  | agar diffusion |  | 300 µg/mL
COc1ccccc1C=NNC(=O)c1cnc2c(ccc3[nH]c(Cl)cc(C)c32)c1=O |  | broth dilution |  | 500 µg/mL
[C-]#[N+][C@]12C(=C)C(C)(C)c3[nH]c4cccc5c4c3[C@]1(O)[C@H](CC[C@]2(C)C=C)C5(C)C |  | broth dilution |  | 15.3 µM
Cc1c(S(=O)(=O)c2ccccc2)[n+](=O)c2ccccc2n1[O-] | Clinical isolate 4 |  |  | 31.25 µg/mL
Cc1ccc2c(c1)ncn2-c1ccc(-c2nc3ccccc3[nH]2)cc1 | ATCC 10231 | broth dilution |  | 12.5 µg/mL
O=C(Cc1ccc([N+](=O)[O-])cc1)Nc1ccc2oc(-c3ccccc3)nc2c1 | ATCC 10145 |  |  | 25 µg/mL
Oc1c(-c2ccc(-c3ccccc3)cc2)nc2ccccn12 | A |  |  | >125 µg/mL
Cc1cc(O)c2c(c1)C(=O)c1cccc(O)c1C2=O |  |  |  | 50 µg/mL
CN[C@@H]1[C@H](O[C@@H]2OC[C@@H](O)[C@H](O)[C@H]2O)[C@@H](O)[C@H](O[C@H]2c3cc(C)c(C(=O)N[C@H](C)C(=O)O)c(O)c3-c3c(cc4c(c3O)C(=O)c3cc(OC)c(I)c(O)c3C4=O)[C@@H]2O)O[C@@H]1C | A9540 |  |  | >100 µg/mL
Nc1ccc(-c2n[nH]c(=O)n2-c2ccccc2)cc1 | ATCC 2091 |  |  | 62.5 µg/mL
O=[n+]1c(Sc2ccccc2)c(CBr)n([O-])c2ccccc21 | Clinical isolate 11 |  |  | 31.25 µg/mL
CC(C(=O)O)c1ccc2c(N=Nc3c([N+](=O)[O-])cc(C(=O)O)cc3[N+](=O)[O-])c(O)ccc2c1 | UBA 7 |  |  | 15.63 µg/mL
CN[C@@H]1[C@H](O[C@@H]2OC[C@@H](O)[C@H](O)[C@H]2O)[C@@H](O)[C@H](O[C@H]2c3c(N)c(C)c(C(=O)N[C@H](C)C(=O)O)c(O)c3-c3c(cc4c(c3O)C(=O)c3cc(OC)cc(O)c3C4=O)[C@@H]2O)O[C@@H]1C | A9540 |  |  | >100 µg/mL
Nc1cccc2c(S(=O)(=O)O)cccc12 |  | agar diffusion |  | 100 µg/mL
CC(=O)N1CCN(c2ccc(OC[C@H]3CO[C@](Cn4ccnc4)(c4ccc(Cl)cc4Cl)O3)cc2)CC1 | FR2 |  |  | 0.06 µg/mL
Clc1ccc2nnc3c4ccccc4[nH]c3c2c1 |  |  |  | 12 µM
O=C(N/N=C(\COc1cccc(Cl)c1)N=Cc1ccncc1)c1ccncc1 | ATCC E10231 |  |  | >100 µg/mL
CCOC(=O)/C(N=Nc1ccc(-c2n[nH]c(=S)o2)cc1)=C(\C)O | ATCC 2091 |  |  | 62.5 µg/mL
N/C(COc1ccc([N+](=O)[O-])cc1)=N/NC(=O)c1ccncc1 | ATCC E10231 |  |  | >100 µg/mL
Clc1ccc2c(c1)ncn2-c1ccc(-c2nc3ccccc3[nH]2)cc1 | ATCC 10231 | broth dilution |  | 6.25 µg/mL
ONC1=Nc2cc(Cl)ccc2SC1 | CBS 562 |  |  | >100 µg/mL
Oc1c(-c2ccc(-c3ccccc3)cc2)nc2ncccn12 | A |  |  | >125 µg/mL
COc1ccccc1C1C(Cl)C(=O)N1NC(=O)c1cnc2c(ccc3[nH]c(Cl)cc(C)c32)c1=O |  | broth dilution |  | 250 µg/mL
O=S(=O)(O)c1ccc2cc(O)ccc2c1 |  | agar diffusion |  | 300 µg/mL
C[C@@H](N1CCN(c2ccc(OCC(F)(F)C(F)F)cc2)C1=O)C(O)(Cn1cncn1)c1ccccc1F | TA |  |  | <0.016 µg/mL
Nc1ccc2c(S(=O)(=O)O)cccc2c1S(=O)(=O)O |  | agar diffusion |  | 100 µg/mL
Cc1c(S(=O)(=O)c2ccccc2)[n+](=O)c2cc(Cl)ccc2n1[O-] | Clinical isolate 8 |  |  | 31.25 µg/mL
O=C1c2cccc(O)c2C(=O)c2c(O)cc(CO)cc21 |  |  |  | 50 µg/mL
CCc1ccc(-c2nc3cc(NC(=O)CN4CCN(C)CC4)ccc3o2)cc1 | ATCC 10145 |  |  | 25 µg/mL
CNC1C(C)OC(O[C@H]2c3cc(C)c(C(=O)NC(C)C(=O)O)c(OC)c3-c3c(cc4c(c3O)Cc3cc(OC)cc(O)c3C4=O)[C@@H]2O)C(O)C1OC1OCC(O)C(O)C1O | A9540 |  |  | >100 µg/mL
CC(C)(C)c1cc(C(C)(C)C)c2nc(C(=O)NC(Cc3ccc(O)cc3)C(=O)O)oc2c1 | ATCC 44859 |  |  | >500 µM
O=S(=O)(O)c1ccc2cc(O)c(S(=O)(=O)O)cc2c1 |  | agar diffusion |  | 50 µg/mL
Cc1ccc2nnc3c4ccccc4[nH]c3c2c1 |  |  |  | >200 µM
CC(C)(C)c1cc(C(C)(C)C)c2nc(C(=O)NCC(=O)O)oc2c1 | ATCC 44859 |  |  | >500 µM
c1ccc2c(c1)nnc1c3ccccc3[nH]c21 |  |  |  | 150 µM
c1ccc2[nH]c(-c3ccc(-n4cnc5ccccc54)cc3)nc2c1 | ATCC 10231 | broth dilution |  | 6.25 µg/mL
ONC1=Nc2ccc3ccccc3c2SCC1 | CBS 562 |  |  | >100 µg/mL
CCCCCCCCCCCCCCCC(=O)NC(CCCCN)C(=O)NC(CCCCN)C(N)=O | 4896 | broth dilution |  | 2 µg/mL

Blank or dashed fields: not listed here.